Results from article PMC8916643, “Molecular physiology of pumiliotoxin sequestration in a poison frog” (PLoS ONE, 2022).

Tested on: gene expression in intestines, liver, and skin
Test: RNA sequencing, differential gene expression after PTX 251D feeding
Type: in vivo, Dendrobates tinctorius
Settings: DHQ+PTX vs DHQ
From the text: Lab-reared (non-toxic) Dendrobates tinctorius were housed in terraria with live plants, a water pool, and a shelter. Ten adult females were size-matched, randomly assigned to control or experimental groups (N = 5 per group), and then housed individually. To measure the specific effects of PTX 251D compared to a background toxicity, the control group was fed 0.01% DHQ (Sigma-Aldrich, St. Louis, USA) in a solution of 1% EtOH and the experimental group was fed a solution of 0.01% DHQ and 0.01% PTX 251D (PepTech, Burlington, MA, USA) in a solution of 1% EtOH in water. Each frog was fed 15 μL each day for five days by pipetting the solution directly into the mouth between 10am-12pm. On the afternoon of the fifth day, frogs were euthanized by cervical transection and the dorsal skin, liver, intestines, and oocytes were dissected into Trizol (Thermo Fisher Scientific, Waltham, USA).
RNA extraction followed the Trizol (Thermo Fisher Scientific, Waltham, MA, USA) protocol outlined in Caty et al. 2019 [16] and according to the manufacturer’s instructions. After the first spin, the organic layer was saved for alkaloid extraction (see below). Poly-adenylated RNA was isolated using the NEXTflex PolyA Bead kit (Bioo Scientific, Austin, USA) following manufacturer’s instructions. RNA quality and lack of ribosomal RNA was confirmed using an Agilent 2100 Bioanalyzer (Agilent Technologies, Santa Clara, USA). Each RNA sequencing library was prepared using the NEXTflex Rapid RNAseq kit (Bioo Scientific). Libraries were quantified with quantitative PCR (NEBnext Library quantification kit, New England Biolabs, Ipswich, USA) and a Agilent Bioanalyzer High Sensitivity DNA chip, both according to manufacturer’s instructions. All libraries were pooled at equimolar amounts and were sequenced on four lanes of an Illumina HiSeq 4000 machine to obtain 150 bp paired-end reads.
We created a reference transcriptome using Trinity and filtered the raw assembly by removing contigs with BLAST hits belonging to microorganisms and invertebrates in the Swiss-Prot database, as these represent likely parasites, prey items, or other contaminants. Overlapping contigs were clustered using cd-hit-est and contigs that were less than 250bp long were removed from the assembly. We mapped the paired quality-trimmed Illumina reads to the reference transcriptome using kallisto [35]. Samples were compared across treatment groups (DHQ vs DHQ+PTX) for the skin, liver, and intestines, as these tissues contained higher levels of PTX. Differences in gene expression levels were calculated using DESeq2 [36] [P<0.05 false discovery rate (Benjamini–Hochberg FDR), 4-fold change]. Contigs with significant expression differences were compared to the non-redundant (nr) database using BLAST with an E-value cutoff of 1e-5. […]

CCCCC(C)C=C1CN2CCCC2C(C)(O)C1 (stereo not shown) [PTX 251D, pumiliotoxin (PTX 251D)]
MHC Class Iα expression log2FC (intestines): 5.41 | MHC Class Iα expression log2FC (liver): 3.49 | vitellogenin 2 (VTG2) expression log2FC (liver): -7.73 | solute carrier family 2 protein (SLC2) expression log2FC (skin, stated downregulated): 6.73
